In PMC8881069, “Thio- and selenosemicarbazones as antiprotozoal agents against Trypanosoma cruzi and Trichomonas vaginalis” (Journal of Enzyme Inhibition and Medicinal Chemistry, 2022):

System: Trypanosoma cruzi Y (DTU TcII) epimastigotes
Assay: Y strain epimastigote susceptibility assay (resazurin)
Format: cell-based
Conditions: SI = CC50 J774/IC50 Y epimastigotes

| SMILES | SI Y epi |
| --- | --- |
| NNC(=S)Nc1ccc(F)cc1 [Compound 24] | >2.63 |
| COc1ccc(/C=N/NC(=S)Nc2ccc(OC)cc2)cc1 [Compound 43] | >4.61 |
| O=C(Cn1ccnc1[N+](=O)[O-])NCc1ccccc1 [Benznidazole, benznidazole, reference compound] | >11.26 |
| COc1ccc(NC(=S)NN)cc1 [Compound 23] | >4.27 |
| NNC(=S)Nc1cccc2ccccc12 [Compound 31] | >7.61 |
| COc1ccc(/C=N/NC(=S)Nc2ccccc2)cc1 [Compound 37] | >3.01 |

System: Trichomonas vaginalis
Assay: Trichomonacidal in vitro assay (resazurin)
Format: cell-based
Conditions: SI = CC50 Vero cells/IC50 T. vaginalis

| SMILES | SI (T. vaginalis) |
| --- | --- |
| Oc1ccc(/C=N/NC(=S)Nc2ccc(I)cc2)cc1 [Compound 50] | >7.10 |
| Cc1ncc([N+](=O)[O-])n1CCO [Metronidazole, metronidazole, reference compound] | >111 |
| NNC(=S)Nc1cccc([N+](=O)[O-])c1 [Compound 29] | > 15.7 and >15.67 |
| COc1ccc(/C=N/NC(=S)Nc2ccc(Cl)cc2)cc1 [Compound 46] | >9.30 |
| NNC(=S)Nc1ccc(Cl)cc1 [Compound 25] | >6.10 |
| O=[N+]([O-])c1ccc(NC(=S)N/N=C/c2ccc(O)cc2)cc1 [Compound 59] | 7.07 |
| COc1ccc(/C=N/NC(=S)Nc2cccc3ccccc23)cc1 [Compound 64] | >9.85 |
| COc1ccc(/C=N/NC(=S)Nc2ccc(I)cc2)cc1 [Compound 51] | > 15.7 and >20.20 |
| O=[N+]([O-])c1cccc(NC(=S)N/N=C/c2ccc(O)cc2)c1 [Compound 56] | 7.00 |
| Oc1ccc(/C=N/NC(=S)Nc2cccc3ccccc23)cc1 [Compound 63] | > 15.7 and 18.45 |
| Oc1ccc(/C=N/NC(=S)Nc2ccc(Br)cc2)cc1O [Compound 49] | > 15.7 and >18.30 |
| Oc1ccc(/C=N/NC(=S)Nc2ccc(I)cc2)cc1O [Compound 52] | >12.05 |
| COc1ccc(/C=N/NC(=S)Nc2ccccc2[N+](=O)[O-])cc1 [Compound 54] | >8.77 |
| NNC(=S)Nc1cccc2ccccc12 [Compound 31] | >9.93 |

Where “and” joins values, the source holds several entries; their conditions need not be identical. Equal values may be shown once.
